Results published in PubChem BioAssay (NCATS).
The entries are a selection whose mix differs from that of the whole data set. Results filed as inconclusive are left out. Calls of active or inactive are those of the source. Unless noted, calls follow the shape of the dose curve; as a rule, active = well fitted curve in the direction sought with a large enough effect; inconclusive = small, poorly fitted or top-dose-only effect, or another doubt; inactive = no such curve, though single readings can be large; an effect the other way counts as inactive or inconclusive.

Experiments:
[1] = molecular target: Pyruvate kinase (Leishmania mexicana) (UniProt Q27686); experiment: qHTS Validation Assay for Inhibitors of Leishmania Mexicana Pyruvate Kinase (AID 945);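 also: 0% = DMSO only neutral control wells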; conditions: purified L. mexicana pyruvate kinase, enzyme activity, E451W mutant enzyme; at 57.5 µM (top of the series)
In short: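 Eight-point qHTS titrations in triplicate, data normalized to DMSO neutral control. Reaction: 0.2 nM LmPYK E451W mutant, 0.5 mM PEP, 0.1 mM ADP, 7 mM MgCl2, pH 7.2, one hour at room temperature; luminescent ATP detection.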

[2] = Primary qHTS to identify inhibitors of SARS-CoV-2 cell entry (AID 1645846; calls by dose curve; also: potency is read from the fitted curve at half-maximal effect; nearly all actives have a fitted effect of over 45% in size); conditions: SARS-CoV-2 pseudovirus cell entry assay, luminescence
[3] = molecular target: Endonuclease 4 (Escherichia coli (strain K12)) (UniProt P0A6C1); experiment: Counterscreen for APE1 Inhibitors: qHTS Validation Assay for Inhibitors of Endonuclease IV (AID 1708); also: % is scaled to controls: 0 for no effect and ±100 for the full control effect; conditions: E. coli endonuclease IV, DNA cleavage fluorescence; at 57.1 µM (top of the series)
In short: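 Incision of a double-stranded 50 nM TAMRA/BHQ-2 abasic substrate was followed kinetically (525/598 nm, reads every 60 s) after 15 min enzyme–compound preincubation with 2 nM EndoIV in pH 7.5 Tris buffer with MgCl2, DTT and Tween-20; concentration-response format.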

[4] = qHTS for differential inhibitors of proliferation of Plasmodium falciparum line Dd2 (AID 1882); conditions: Plasmodium falciparum Dd2 proliferation inhibition; also: potency is read from the fitted curve at half-maximal effect; nearly all actives have a fitted effect of over 65% in size
In short: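 SYBR Green DNA fluorescence (ex 485, em 535 nm) after overnight lysis quantifies parasite growth; compound exposure lasted 72 h at 37 C on infected red cells at 2.5% hematocrit, 0.3% parasitemia (final). Artemisinin 0.29 uM and vehicle wells define normalization.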

[5] = Validation screen for inhibitors of Lassa infection (AID 463096; calls by dose curve; also: % is scaled to controls: 0 for no effect and ±100 for the full control effect); conditions: Lassa virus infection, cell-based; at 46.1 µM (top of the series)
[6] = molecular target: DNA polymerase III PolC-type (Bacillus subtilis (strain 168)) (UniProt P13267); experiment: qHTS Validation Assay for the Inhibitors of DNA Replication in Gram-Positive Bacteria (AID 485295); conditions: Gram-positive bacterial DNA replication assay; at 57.1 µM (top of the series);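 also: PicoGreen fluorescence of double-stranded DNA made on primed circular M13 template; 0% = DMSO wells and -100% = EDTA-quenched background wells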
In short: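 Reconstituted B. subtilis holoenzyme (Pol III, beta clamp, SSB, primase) was preincubated with compound at room temperature, then given single-stranded circular M13Gori plus dNTPs and NTPs. EDTA-containing PicoGreen stopped the reaction, and dsDNA product was read by fluorescence.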

[7] = molecular target: Tumor susceptibility gene 101 protein (Homo sapiens) (UniProt Q99816); experiment: qHTS Validation Assay for Iinhibitors of HIV-1 Budding by Blocking the Interaction of PTAP/TSG101 (AID 485342; calls by dose curve; also: 0% is about no effect); conditions: TSG101-PTAP binding, fluorescence polarization, 4-point titration; at 115 µM (top of the series)
In short: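 Tsg101 binding domain (10 uM final) in pH 7.5 HEPES/NaCl/Tween 20/EDTA/TCEP buffer was mixed with pin-transferred compounds, then FITC-labeled PTAP peptide (50 nM final) was added; after 20 min at r.t., fluorescence polarization was read.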

[8] = Quantitative high throughput screen for delayed death inhibitors of the malarial parasite plastid, 96 hour incubation (AID 488745); conditions: Plasmodium falciparum growth; at 28.7 µM (top of the series); also: % is scaled to controls: 0 for no effect and ±100 for the full control effect; nearly all actives have a fitted effect of over 70% in size
In short: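 Decreased firefly luciferase luminescence indicates inhibited growth of reporter-integrated P. falciparum after two generations (96 h, 37 C, 5% CO2). Infected erythrocytes at 0.1% parasitemia, 2% hematocrit, in Albumax-supplemented RPMI 1640.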

[9] = molecular target: Phosphoglycerate kinase, glycosomal (Trypanosoma brucei brucei) (UniProt P07378); experiment: qHTS Validation Assay to Find Inhibitors of Phosphoglycerate Kinase (AID 504547); conditions: enzymatic PGK inhibition, coupled luminescence read-out; at 57.5 µM (top of the series);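 also: control wells lack PGK and mark full inhibition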
In short: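 Luminescence end-point (Kinase-Glo Plus, 10 min) after a 60 min room-temperature coupled reaction. GAPDH at 100nM final supplies 1,3-BPG to PGK. Buffer: 100mM TEA pH 7.6, 5mM MgCl2, 0.01% Tween-20. Wells lacking PGK served as controls.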

[10] = molecular target: phosphoglycerate mutase (Leishmania major) (UniProt Q4Q090); experiment: qHTS Validation Assay to Find Inhibitors of Phosphoglycerate Mutase (AID 504548); conditions: biochemical enzyme activity; at 57.5 µM (top of the series); also: % is scaled to controls: 0 for no effect and ±100 for the full control effect
In short: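 Luminescent end-point read-out via Kinase-GloPlus after a 10-minute development. Reaction: 1.25nM Leishmania major PGAM with substrate and compound, 45 minutes at room temperature in TEA buffer (pH 7.6) with MgCl2 and Tween-20.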

[11] = qHTS of Trypanosoma Brucei Inhibitors: LOPAC Validation (AID 624147); conditions: Trypanosoma brucei growth inhibition; at 57.5 µM (top of the series); also: 0% is about no effect
In short: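 Luminescent Kinase-Glo Plus end-point after 45 min room-temperature reaction of T. brucei pyruvate kinase started with 130 uM ADP (final). Buffer TEA 50 mM pH 7.2 with KCl, MgCl2, BSA, Tween-20; titration-based qHTS with fitted concentration-effect curves.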

[12] = qHTS assay for measurement of the activity of small molecule inhibitors on Zika virus induced Caspase-3 activity in human iPSC derived neural progenitor cells (hNPCs) (AID 1224857); conditions: hNPCs ZIKV-induced caspase-3/7, Caspase-Glo luminescence, 6 h; at 45.7 µM (top of the series) unless noted; also: % of control where 0% means no effect; nearly all actives have a fitted effect of over 65% in size
[13] = qHTS assay for measurement of the activity of small molecule inhibitors on Zika virus induced Caspase-3 activity in human astrocytoma cells (AID 1224859); conditions: SNB-19 ZIKV-induced caspase-3/7, luminescence, 6 h; at 45.7 µM (top of the series) unless noted;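 also: plate controls were ZIKV-infected untreated cells for no effect and uninfected cells for full effect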
[14] = NS1 protein of Zika virus - qHTS assay to identify small molecule inhibitors in human HEK 293 cells (AID 1347053); conditions: HEK293 ZIKV MR766 infection, NS1 TR-FRET, 24 h; at 46.1 µM (top of the series) unless noted;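 also: plate controls were infected untreated cells for no effect and uninfected cells for full effect; nearly all actives have a fitted effect of over 55% in size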
[15] = qHTS for Inhibitors of the Functional Ribonucleoprotein Complex (vRNP) of Lassa (LASV) Arenavirus: LASV Primary Screen - GLuc reporter signal (AID 1347082; calls by dose curve; tested in HEK293 reporter line; also: % is scaled to controls: 0 for no effect and ±100 for the full control effect; nearly all actives have a fitted effect of over 60% in size); conditions: LASV minigenome vRNP, Gaussia luciferase reporter; at 57.5 µM (top of the series) unless noted
[16] = qHTS for Inhibitors of the Functional Ribonucleoprotein Complex (vRNP) of Lassa (LASV) Arenavirus: Viability assay - alamar blue signal for LASV Primary Screen (AID 1347083; calls by dose curve; tested in HEK293 reporter line; also: % is scaled to controls: 0 for no effect and ±100 for the full control effect; nearly all actives have a fitted effect of over 80% in size); conditions: cell viability, alamar blue fluorescence (LASV minigenome counter-screen); at 57.5 µM (top of the series) unless noted
[17] = qHTS for Inhibitors of the Functional Ribonucleoprotein Complex (vRNP) of Lymphocytic Choriomeningitis Arenaviruses (LCMV): Viability assay - alamar blue signal for LCMV Primary Screen (AID 1347085; calls by dose curve; tested in HEK293 reporter line; also: % is scaled to controls: 0 for no effect and ±100 for the full control effect; nearly all actives have a fitted effect of over 80% in size); conditions: alamar blue viability counter-screen, LCMV vRNP screen cells; at 57.5 µM (top of the series) unless noted
[18] = molecular target: Nucleoprotein (Lymphocytic choriomeningitis virus (strain Armstrong)) (UniProt P09992); experiment: qHTS for Inhibitors of the Functional Ribonucleoprotein Complex (vRNP) of Lymphocytic Choriomeningitis Arenaviruses (LCMV): LCMV Primary Screen - GLuc reporter signal (AID 1347086; calls by dose curve; also: % is scaled to controls: 0 for no effect and ±100 for the full control effect; nearly all actives have a fitted effect of over 70% in size); conditions: LCMV minigenome vRNP cell assay, Gaussia luciferase reporter; at 57.5 µM (top of the series) unless noted
[19] = system: Zika virus NS2B-NS3 protease (unlinked); experiment: Optimization of GU AMC qHTS for Zika virus inhibitors: Unlinked NS2B-NS3 protease assay (AID 1347151); conditions: recombinant ZIKV NS2B-NS3 protease, fluorogenic AMC substrate; at 52.5 µM (top of the series);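 also: 0% = no-inhibitor control and -100% = no-enzyme control; nearly all actives have a fitted effect of over 80% in size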
In short: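 Noncovalent complex of NS2B hydrophilic domain and NS3 protease domain, 25 nM final, in 10 mM Tris-HCl pH 8.0, 0.01% Tween 20. AMC fluorescence change over 15 min at room temperature was fitted to a 4-parameter Hill equation.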

[20] = Primary qHTS for inhibitors of La Crosse Virus (LACV) - induced cell death in SH-SY5Y cells (AID 1508616); conditions: SH-SY5Y LACV cytopathicity rescue, ATP luminescence, 6 d; at 9.63 µM (top of the series) unless noted;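 also: top concentration of the series differs between compounds; 0% = infected DMSO wells and 100% = uninfected DMSO wells; higher means more rescue of cells from virus-induced death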
In short: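 Rescue of virus-induced death was read as ATPLite luminescence after 6 days at 37C, scaled between DMSO wells with LACV and without virus. Cells were SH-SY5Y, 6000/well, infected at 0.01 MOI after compound addition.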

SMILES: CN(C(=O)Cc1ccccc1)[C@@H]1CC[C@@]2(CCCO2)C[C@H]1N1CCCC1
- activity change, negative = inhibition [1]: inactive: 14.4%

SMILES: N[C@@H](Cc1ccc([N+]([O-])(CCCl)CCCl)cc1)C(=O)O
- Potency [2]: active: 14.1 µM

SMILES: CN(C(=O)Cc1ccccc1)[C@@H]1CC[C@]2(CCCO2)C[C@H]1N1CCCC1
- activity change, negative = inhibition [3]: inactive: -5.06%
- Potency [4]: active: 10 µM
- activity change, negative = inhibition [5]: inactive: -4.79%
- activity change, negative = inhibition [6]: inactive: -2.2%
- fluorescence change [7]: inactive: 5.63%
- activity change, negative = inhibition [8]: inactive: -92.4%
- activity, negative = inhibition [9]: inactive: 1.29%
- activity change, negative = inhibition [10]: inactive: -5.8%
- activity change, negative = inhibition [11]: inactive: -9.99%
- activity change, negative = inhibition [12]: inactive: 112%
- activity change, negative = inhibition [13]: inactive: 4.86%
- activity change, negative = inhibition [14]: inactive: -3.53%
- activity change, negative = inhibition [15]: inactive: -2.5%
- activity change, negative = reduced viability [16]: inactive: 27.5%
- activity change, negative = lower viability [17]: inactive: 5.24%
- activity change, negative = inhibition [18]: inactive: 9.77%
- activity change, negative = inhibition [19]: inactive: -4.56%
- activity change [20]: inactive: 22.2%
